Results of unrelated studies side by side (data: NIAID ChemDB).

All rows: whole-cell or culture tests; species: Mycobacterium tuberculosis

Inhibition is in % at the dose shown (toxicity tests: loss of growth or viability). Rows are shuffled and stem from different studies. MIC50, MIC90 and the like: level of inhibition, or share of isolates inhibited. MIC bound comes from a single tested concentration. Zones are inhibition diameters on agar. ECn is the concentration giving n% inhibition of infection, replication or growth. An empty or dashed field is not shown.

compound,dose,cells,strain or isolate,method,measure,conditions,value
Oc1ccc2[nH]c3cc4ccncc4cc3c2c1,6.25 µg/mL,,H37Rv,resazurin,inhibition,,64%
CC1C(=O)Nc2ccc(C(=O)CN3CCN(c4noc5cccc(Cl)c45)CC3)cc21,,,H37Rv,visual reading / absorbance,MIC,,25 µg/mL
CCC(C)N(C(=S)NC)c1ccc(F)c(Cl)c1,1000 µg/mL,,,visual reading,zone,,8.02 mm
CCOC(=O)c1[nH]c(-c2ccccc2)c(C(=O)OCC)c1-c1ccccc1,12.5 µg/mL,,H37Rv,BACTEC,inhibition,,49%
Cc1ccc(-n2c(=S)oc3ccc(C)cc3c2=S)cc1,,,My 331/88,,MIC,21 d,1 µM
CCN(CC)CCOc1ccc(NC(=S)Nc2ccc(OCC(C)C)cc2)cc1,,,76,,MIC,,31.3 µg/mL
O=C1Nc2c(Cl)cc(Cl)cc2/C1=N/N=C/c1ccco1,12.5 µg/mL,,H37Rv,BACTEC,inhibition,,47%
CCCCCCCCc1ccc2c(c1)C(=O)c1nc3ccncc3c(=O)n1-2,,,TN1082RFLP:V (DRUG sensitive),,MIC,,≤0.015 µg/mL
O=C1Cc2cc(C(=O)CN3CCN(c4noc5c(Cl)cccc45)CC3)ccc2N1,,,H37Rv,visual reading / absorbance,MIC,,>50 µg/mL
O=C(O)c1ccc(N=NC2Sc3nc4ccccc4n3C2=O)cc1,,,H37Rv,BACTEC,MIC bound,,>12.5 µg/mL
CCC(C)N(C(=S)Nc1ccccc1)c1ccc(F)c(Cl)c1,,,,visual reading,MIC,,400 µg/mL
C=CCN1C(=O)/C(=C\C=C\c2ccccc2)S/C1=N\c1nc2ccccc2s1,,,H37Rv,,MIC,,≥25 µg/mL
OC(c1cc2c(Cl)cc(Cl)cc2c2cc(C(F)(F)F)ccc12)C1CCCCN1,,VERO,H37Rv,,MIC,,1.56 µg/mL
NNC(=O)c1ccncc1,,,H37RV #164,,MIC,,<0.5 µg/mL
CCOc1ccc(N2C(=O)/C(=C/c3ccc(N(C)C)cc3)S/C2=N\c2ccccn2)cc1,,,H37Rv,,MIC,,≥25 µg/mL
CC1C(=O)N(C)c2ccc(C(=O)CN3CCN(c4ccccn4)CC3)cc21,,,H37Rv,visual reading / absorbance,MIC,,1.56 µg/mL
COc1ccc2oc(=O)n(-c3ccc(Br)cc3)c(=S)c2c1,,,My 331/88,,MIC,21 d,32 µM
O=C1c2cc(I)ccc2-n2c1nc1ncccc1c2=O,,,H37Rv,,MIC,,0.03 µg/mL
CC(c1cccs1)N(C(=S)Nc1ccccc1)c1ccc(Cl)c(Cl)c1,,,,visual reading,MIC,,25 µg/mL
COc1ccc2oc(=S)n(-c3ccc(Br)cc3)c(=S)c2c1,,,My 331/88,,MIC,21 d,16 µM
CN1C(=O)Cc2cc(C(=O)CN3CCN(c4noc5c(Cl)cccc45)CC3)ccc21,,,H37Rv,visual reading / absorbance,MIC,,12.5 µg/mL
O=c1oc2ccc(F)cc2c(=S)n1-c1ccc(Cl)c(Cl)c1,,,My 331/88,,MIC,14 d,0.5 µM
CNC(=S)N(c1ccc(Cl)c(Cl)c1)C(C)c1cccs1,,,,visual reading,MIC,,100 µg/mL
CCCCCCCCc1ccc2c(c1)C(=O)c1nc3c(OC)cccc3c(=O)n1-2,,,H37Rv,,MIC,,0.5 µg/mL
Cc1ccc(S(=O)(=O)Nc2nnc(-c3coc4ccc(C)cc4c3=O)s2)cc1,,,H37Rv,resazurin,MIC bound,,>6.25 µg/mL
CCOC(=O)N1CCN(c2ccc3c(-c4ccccc4)cc(OC)nc3n2)CC1,12.5 µg/mL,,H37Rv,,inhibition,,77%
O=C(O)c1cccc2nc3ccccc3nc12,12.5 µg/mL,,H37Rv,BACTEC,inhibition,,94%
CCN(CC)CN1C(=O)/C(=N\c2ncc(Cc3cc(OC)c(OC)c(OC)c3)c(N)n2)c2cc(F)ccc21,6.25 µg/mL,,H37Rv,,inhibition,,19%
CCOc1ccc(-n2c(O)c(/C=C3\C=CC(=O)c4ncccc43)s/c2=N\c2ccccn2)cc1,,,H37Rv,,MIC,,≥25 µg/mL
CC1=C/C(=C(/c2cc(C)c(O)c(C(=O)O)c2)c2c(Cl)ccc(S(=O)(=O)O)c2Cl)C=C(C(=O)O)C1=O,,,H37Rv,BACTEC,MIC bound,,>12.5 µg/mL
CC(=O)Nc1ccc2c(-c3ccccc3)cc(Cl)nc2n1,,,H37Rv,,EC50,,>12.5 µg/mL
CCOc1ccc(N2C(=O)/C(=C/c3ccc(OC)cc3)S/C2=N\c2ccccn2)cc1,,,H37Rv,,MIC,,≥25 µg/mL
CCN1C(=O)Cc2cc(C(=O)CN3CCN(c4noc5cccc(Cl)c45)CC3)ccc21,,,H37Rv,visual reading / absorbance,MIC,,1.56 µg/mL
CCC(C)N(C(=S)NC)c1ccc(Cl)c(Cl)c1,,,,visual reading,MIC,,>400 µg/mL
O=C1c2ccccc2C(=O)N1CCCc1ccc2oc3ccccc3c2c1,12.5 µg/mL,,H37Rv,BACTEC,inhibition,,4%
CC1C(=O)N(C)c2ccc(C(=O)CN3CCN(c4noc5ccccc45)CC3)cc21,,,H37Rv,visual reading / absorbance,MIC,,6.25 µg/mL
Nc1ccc2c(-c3ccccc3)cc(N3CCNCC3)nc2n1,,,H37Rv,,EC50,,>12.5 µg/mL
COc1cc(Cc2cnc(/N=C3\C(=O)N(CN4CCN(c5cccc(C(F)(F)F)c5)CC4)c4ccc(F)cc43)nc2N)cc(OC)c1OC,6.25 µg/mL,,H37Rv,,inhibition,,40%
CNC(=S)N(c1ccc(F)c(Cl)c1)C1CCCCC1,1000 µg/mL,,,visual reading,zone,,11.08 mm
CCOC(=O)c1ccc2c(c1)C(=O)c1nc3c(OC)cccc3c(=O)n1-2,,,H37Rv,,MBC,,32 µg/mL
CC1S(=O)(=O)OCCCOS1(=O)=O,,,H37Rv,BACTEC,MIC bound,,>12.5 µg/mL
COc1cc(Cc2cnc(/N=C3\C(=O)N(CN4CCN(C)CC4)c4ccc(F)cc43)nc2N)cc(OC)c1OC,,,H37Rv,,EC50,,>6.25 µg/mL
S=C(Nc1ccccc1)N(Cc1ccco1)c1ccc(Cl)c(Cl)c1,,,,visual reading,MIC,,25 µg/mL
COc1cc(Cc2cnc(/N=C3\C(=O)N(CN4CCC(C)CC4)c4ccc(F)cc43)nc2N)cc(OC)c1OC,6.25 µg/mL,,H37Rv,,inhibition,,24%
CCN1C(=O)C(C)c2cc(C(=O)CN3CCN(c4noc5cc(Cl)ccc45)CC3)ccc21,,,H37Rv,visual reading / absorbance,MIC,,1.56 µg/mL
Cc1c(N2CCN(C(=O)C3COc4ccccc4O3)CC2)c([N+](=O)[O-])cc2c(=O)c(C(=O)O)cn(C3CC3)c12,,,H37Rv,,MIC,,2.92 µM
NC[C@H]1O[C@H](O[C@H]2[C@H](O)[C@@H](O[C@H]3O[C@H](CO)[C@@H](O)[C@H](N)[C@H]3O)[C@H](N)C[C@@H]2N)[C@H](O)[C@@H](O)[C@@H]1O,,,,,MIC,,6 µg/mL
CO[C@H]1/C=C/O[C@@]2(C)Oc3c(C)c(O)c4c(O)c(c5c(c4c3C2=O)NC2(CCN(CC(C)C)CC2)N=5)=NC(=O)/C(C)=C\C=C\[C@H](C)[C@H](O)[C@@H](C)[C@@H](O)[C@@H](C)[C@H](OC(C)=O)[C@@H]1C,,,30 isolates,,MIC90,,8 µg/mL
N[C@@H](CCC(=O)N[C@@H](CS)C(=O)NCC(=O)O)C(=O)O,,,H37Rv,BACTEC,MIC bound,,>12.5 µg/mL
CCN1C(=O)Cc2cc(C(=O)CN3CCN(c4noc5c(Cl)cccc45)CC3)ccc21,,,H37Rv,visual reading / absorbance,MIC,,3.12 µg/mL
c1ccc(-c2cc(N3CCNCC3)nc3nc(N4CCNCC4)ccc23)cc1,12.5 µg/mL,,H37Rv,,inhibition,,10%
Cc1c(N2CCC(O)(c3ccc(Cl)cc3)CC2)c([N+](=O)[O-])cc2c(=O)c(C(=O)O)cn(C3CC3)c12,,,H37Rv,,MIC,,6.29 µM
COc1cccc(N2CCN(CN3C(=O)/C(=N\c4ncc(Cc5cc(OC)c(OC)c(OC)c5)c(N)n4)c4cc(F)ccc43)CC2)c1,,,H37Rv,,EC50,,<6.25 µg/mL
OCCN(CCO)c1ccc2c(-c3ccccc3)cc(N(CCO)CCO)nc2n1,,,H37Rv,,EC50,,>12.5 µg/mL
CCCCOc1ccc(NC(=S)Nc2ccc(OCCN(CC)CC)cc2)cc1,,,H37RV #302,,MIC,,62.5 µg/mL
CC(=O)NC[C@H]1CN(c2ccc(N3CCOCC3)c(F)c2)C(=O)O1,,,42 isolates,,MIC50,,0.25 µg/mL
Cc1c(N2CCN(C(=O)c3ccco3)CC2)c([N+](=O)[O-])cc2c(=O)c(C(=O)O)cn(C3CC3)c12,,,H37Rv,,MIC,,0.84 µM
CN(C)C=NCc1ccc2c(c1)OCO2,,,H37Rv,BACTEC,MIC bound,,>12.5 µg/mL
O=C1c2cc(C(F)(F)F)ccc2-n2c1nc1ccccc1c2=O,,,H37Rv,,MIC,,0.015 µg/mL
C[C@@H]1CN(c2c(F)c(N)c3c(=O)c(C(=O)O)cn(C4CC4)c3c2F)C[C@H](C)N1,,,H37Rv,,MBC,,0.2 µg/mL
C=CCN1C(=O)/C(=C/c2ccc(C)cc2)S/C1=N\c1nc2ccccc2s1,,,H37Rv,,MIC,,≥25 µg/mL
COc1cc2c(cc1O)C[C@H]1c3c(cc(O)c(OC)c3-2)CCN1C,,,H37Rv,BACTEC,MIC,,≥12.8 µg/mL
CCOC(=O)N1CCN(c2cc(-c3ccccc3)c3ccc(N)nc3n2)CC1,,,H37Rv,,EC50,,<12.5 µg/mL
Cc1c(N2CCN(C(=O)C3COc4ccccc4O3)CC2)c([N+](=O)[O-])cc2c(=O)c(C(=O)O)cn(-c3ccc(F)cc3F)c12,,,H37Rv,,MIC,,>20.61 µM
COc1nc(N)c(NC2OC[C@@H](O)[C@H](O)[C@H]2O)c(=O)n1C,6.25 µg/mL,,H37Rv,resazurin,inhibition,,-5%
CCOc1ccc(N2C(=O)/C(=C/c3cccc(O)c3)S/C2=N\c2ccccn2)cc1,,,H37Rv,,MIC,,≥25 µg/mL
Cc1ccc2oc(=O)n(-c3ccccc3)c(=S)c2c1,,,My 331/88,,MIC,14 d,1 µM
COc1cc(Cc2cnc(/N=C3\C(=O)N(CN4CCN(Cc5ccccc5)CC4)c4ccc(F)cc43)nc2N)cc(OC)c1OC,6.25 µg/mL,,H37Rv,,inhibition,,37%
COC(=S)Nc1ccc2c(c1)nc(-c1ccccc1)c1cc(NC(=S)OC)ccc12,12.5 µg/mL,,H37Rv,BACTEC,inhibition,,12%
Cc1ccc2oc(=S)n(-c3ccc(Br)cc3)c(=S)c2c1,,,My 331/88,,MIC,21 d,0.5 µM
CCOc1ccc(N2C(=O)/C(=C/c3ccncc3)S/C2=N\c2ccccn2)cc1,,,H37Rv,,MIC,,≥25 µg/mL
Cc1ccc(-n2c(=S)oc3ccc(F)cc3c2=S)cc1,,,My 331/88,,MIC,21 d,2 µM
CC1SCC(=O)N1c1nncs1,12.5 µg/mL,,H37Rv,BACTEC,inhibition,,-7%
CCOC(=O)N1CCN(c2cc(-c3ccccc3)c3ccc(=O)[nH]c3n2)CC1,12.5 µg/mL,,H37Rv,,inhibition,,12%
O=C1C(Cl)=C(NCCCN2CCN(CCCNC3=C(Cl)C(=O)c4ccccc4C3=O)CC2)C(=O)c2ccccc21,12.5 µg/mL,,H37Rv,BACTEC,inhibition,,-8%
O=C1c2cc(F)ccc2-n2c1nc1ncccc1c2=O,,,H37Rv,,MBC,,4 µg/mL
NC(=O)N/N=C(\C(=O)C(=O)Nc1ccc(Cl)c(C(F)(F)F)c1)c1nc2ccc(C(=O)c3ccccc3)cc2[nH]c1=O,12.5 µg/mL,,H37Rv,BACTEC,inhibition,,17%
C=CCN1C(=O)/C(=C/c2ccc(OC)c(OC)c2)S/C1=N\c1nc2ccccc2s1,,,H37Rv,,MIC,,≥25 µg/mL
CO[C@@H]1[C@@H](OC(=O)c2ccc(C)[nH]2)[C@@H](O)C(Oc2ccc3c(O)c(NC(=O)c4c[nH]c(C(=O)Nc5c(O)c6ccc(OC7OC(C)(C)[C@H](OC)[C@@H](OC(=O)c8ccc(C)[nH]8)[C@H]7O)c(C)c6oc5=O)c4C)c(=O)oc3c2C)OC1(C)C,,,PZA-R,,MIC,,3.2 µg/mL
CCOc1ccc(N2C(=O)/C(=C/c3ccc(OC)cc3OC)S/C2=N\c2ccccn2)cc1,,,H37Rv,,MIC,,≥25 µg/mL
O=c1[nH]c2cc3c(cc2n2cccc12)oc1ccccc13,,,H37Rv,BACTEC,MIC bound,,>12.5 µg/mL
Cc1ccc2c(c1)C(=O)c1nc3ccccc3c(=O)n1-2,,,H37Rv,,MIC,,0.5 µg/mL